Laboratory results: PubChem BioAssay AID1159557 (GlaxoSmithKline (GSK), 2015)
pIC50: −log10 of the molar value.

System: Trypanosoma brucei growth inhibition
Experiment: T. brucei growth inhibition (AID 1159557);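 note: parasites exposed to compound for 48 h before the resazurin readout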

`CC(C)(C)c1ccc(NC2(C(N)=O)CCN(Cc3ccccc3)CC2)cc1` showed a pIC50 of 4.89.
